Measurements reported in PubChem BioAssay AID624099 (ICCB-Longwood, 2012).
The deposit covers about 21,000 reagents; below is a random part of them. 497 of all reagents (2.4%) were called active. 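Higher z means weaker E2 silencing; only reporter increases were scored, and knock-downs that hurt cell survival may mask genuine repressor factors.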

Assay: 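Host factors E2 relies on to silence an HPV18 LCR reporter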 (primary screen)
Cells: human C33A cervical carcinoma cells (HPV-negative) stably expressing BPV1 E2 and an HPV18 LCR luciferase reporter
Reagents: siRNA pool against human genes, 40 nM
Time to read-out: 72 h
Measurement: 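Per-well luciferase luminescence, z-scored on each plate against the plate mean and SD with control wells left out, then averaged across three replicate plates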
Reading the numbers: mean z-score and z-score: higher = stronger reporter signal, weaker E2 silencing
Call rule: 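Hit if mean z-score reaches 2 and two or more of three replicate z-scores also reach 2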

no.	gene knocked down	mean z-score	z-score, replicate A	z-score, replicate B	z-score, replicate C	Call
1	GP1BB	0.15	0.03	0.29	0.13	inactive
2	MCL1	-0.2	0.27	-0.01	-0.87	inactive
3	UBR2	0.25	0.27	0.31	0.15	inactive
4	PTGES3	-0.54	-0.46	-0.55	-0.6	inactive
5	CRIP1	0.53	0.47	0.64	0.48	inactive
6	BDH1	0.55	0.77	0.48	0.4	inactive
7	ERMN	-0.16	-0.3	-0.27	0.1	inactive
8	MAGED4B	-1.06	-0.68	-0.56	-1.93	inactive
9	MSRB1	-0.52	-0.27	-0.52	-0.78	inactive
10	RRP9	-1.08	-1.03	-1.14	-1.06	inactive
11	MTRES1	-0.74	-0.22	-1.03	-0.98	inactive
12	CAB39	-1.16	-0.96	-0.84	-1.67	inactive
13	AFF1	1.24	1.19	1.18	1.36	inactive
14	PROB1	1.32	1.41	1.26	1.3	inactive
15	SLC67A1	-0.74	-0.92	-0.66	-0.62	inactive
16	CCDC77	0.33	0.4	0.35	0.26	inactive
17	CADPS2	1.02	1.25	0.7	1.1	inactive
18	TNFAIP2	2.74	1.63	3.23	3.35	active
19	MRPS28	-0.33	-0.14	-0.24	-0.63	inactive
20	TNNC2	-0.08	-0.28	0.12	-0.07	inactive
21	NOL11	-0.09	-0.02	-0.01	-0.24	inactive
22	SNRPD2P1	0.25	0.24	0.3	0.2	inactive

A portion taken from the entries so far, for reference:
no.	gene knocked down	mean z-score	z-score, replicate A	z-score, replicate B	z-score, replicate C	Call
11	MTRES1	-0.74	-0.22	-1.03	-0.98	inactive
12	CAB39	-1.16	-0.96	-0.84	-1.67	inactive
13	AFF1	1.24	1.19	1.18	1.36	inactive
14	PROB1	1.32	1.41	1.26	1.3	inactive

The list goes on.
no.	gene knocked down	mean z-score	z-score, replicate A	z-score, replicate B	z-score, replicate C	Call
23	C6orf136	0.33	0.42	0.32	0.26	inactive
24	LSR	-2.01	-2.28	-1.86	-1.89	inactive
25	DCTN3	-0.59	-0.73	-0.45	-0.59	inactive
26	ZKSCAN7	0.34	0.03	0.4	0.59	inactive
27	KIAA0492 (retired record)	-0.07	0	0.03	-0.24	inactive
28	ZCCHC10	-1.29	-1.14	-1.46	-1.29	inactive
29	CCR6	1.61	1.52	1.83	1.49	inactive
30	B4GAT1	0.59	0.63	0.51	0.63	inactive
31	DYNC2I1	0.88	1.29	0.75	0.6	inactive
32	LINC02363	0.09	0.02	-0.01	0.26	inactive
33	GPR143	-1.02	-1.01	-1.02	-1.02	inactive
34	CBFB	0.85	0.89	0.89	0.79	inactive
35	CAPRIN1	1.5	1.55	1.45	1.51	inactive
36	ZFP36L1	-0.23	0.82	-0.5	-0.99	inactive
37	PIP5KL1	-0.86	-0.42	-1.01	-1.14	inactive
38	INKA2	-2.05	-1.68	-2.38	-2.08	inactive
39	IFNL1	1.73	2.45	1.44	1.31	inactive
40	NEUROG1	0.51	0.28	0.76	0.49	inactive
41	PER1	-0.95	-0.96	-1.23	-0.66	inactive
42	LRRC45	-1.56	-1.48	-1.67	-1.54	inactive
43	TTC27	-0.58	-0.74	-0.75	-0.25	inactive
44	ENTR1P1	-0.26	-0.37	-0.51	0.1	inactive
45	ICAM1	-1.11	-1.27	-1.1	-0.96	inactive
46	DKFZp566H0824 (retired record)	1.19	1.13	1.02	1.42	inactive
47	AVIL	0.82	1.05	0.51	0.9	inactive
48	FRMD5	0.44	-0.21	0.73	0.81	inactive
49	UGT8	0.42	0.28	0.42	0.55	inactive
50	TRIM28	-1.18	-1.03	-1.09	-1.41	inactive
51	WDR88	1.35	1.72	1.07	1.25	inactive
52	NPM1	-1.08	-1.22	-1.03	-0.98	inactive
53	HESX1	-1.31	-0.92	-1.45	-1.57	inactive
54	GRN	1.03	0.82	1.11	1.14	inactive
55	ARF3	0.06	0.3	-0.25	0.14	inactive
56	DIAPH3	0.44	0.44	0.49	0.38	inactive
57	FDX1	-0.26	-0.15	-0.41	-0.21	inactive
